This note sets out measurements from PMC2679143 (2009).

Amino acid sequences for entries named in this document (tags omitted). Residues count along the entry.
UniProt Q7N439, 54-313 limits assumed: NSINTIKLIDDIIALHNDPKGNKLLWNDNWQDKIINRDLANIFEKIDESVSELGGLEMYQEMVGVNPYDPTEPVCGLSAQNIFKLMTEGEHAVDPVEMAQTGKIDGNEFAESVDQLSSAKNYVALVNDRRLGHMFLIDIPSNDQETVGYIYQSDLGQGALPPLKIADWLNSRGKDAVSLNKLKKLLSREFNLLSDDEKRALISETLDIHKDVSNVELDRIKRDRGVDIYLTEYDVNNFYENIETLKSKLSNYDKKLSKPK

The structures appear in SMILES notation.

The target in the assay is CifPl (Photorhabdus laumondii, UniProt Q7N439). In words: MALDI-TOF intact mass, tryptic peptide mass fingerprinting, fluorescence increase at […] nm. The following applies: covalent; alkylation of active-site Cys123; pH 7.0, 1 h.

With `CN(C)c1ccc2cc(C(=O)CBr)ccc2c1`, the “MALDI-TOF intact mass, tryptic peptide mass fingerprinting, fluorescence increas” value is on record as “consistent with modification at a single site in both proteins”.
